According to publication PMC11426533 (PLOS Pathogens, 2024):

System: CC(=O)N[C@H]1[C@H](Oc2ccc3c(C)cc(=O)oc3c2)O[C@H](CO)[C@@H](O[C@@H]2O[C@H](CO)[C@@H](O)[C@H](O)[C@H]2NC(C)=O)[C@@H]1O
Assay: purified protein
Conditions: pH 5.0; 37.0 °C

## ChiA (Clostridium perfringens)
  Km: 145.8 ± 91.3 µM
  kcat/Km: 21000 M⁻¹ s⁻¹
